# Genome-wide point mutation profile of HIV-1: Nef

Values reported by Al-Mawsawi et al. 2014 (doi:10.1186/s12977-014-0124-6).

Protein: Nef of HIV-1 NL4-3, numbered from its first residue.
From base 9076 on, changes also alter the 3' U3.
Effects on overlapping genes or RNA elements are not listed.

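Random point mutant libraries of HIV-1 NL4-3, one for each of seven fragments, were passaged in CEM T lymphocytes. Sequencing gave the RC index: frequency after two rounds over frequency in the input plasmid.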

Values are the RC index; higher means better tolerated. The authors read about 0.1 or less as lethal, 0.1-0.2 as attenuated and 0.2 or more as tolerated.
Substitutions are written as wild-type residue, site number, new residue.
Input reads are the counts in the plasmid library.

| substitution | base | input reads | RC |
|---|---|---|---|
| Q73P | A9004C | 67 | 0.863 |
| A56S | G8952T | 61 | 0.532 |
| R106S | A9104T | 347 | 0.770 |
| K82N | G9032T | 295 | 1.06 |
| W57R | T8955A | 368 | 1.07 |
| S163N | G9274A | 346 | 1.28 |
| D108N | G9108A | 229 | 0.840 |
| T44I | C8917T | 202 | 0.985 |
| R188G | C9348G | 40 | 1.35 |
| H89P | A9052C | 59 | 0.163 |
| P69L | C8992T | 157 | 0.746 |
| Y202N | T9390A | 103 | 1.30 |
| L76I | T9012A | 306 | 0.705 |
| I43V | A8913G | 170 | 0.772 |
| G172E | G9301A | 247 | 1.01 |
| D86E | T9044A | 531 | 0.493 |
| E197K | G9375A | 164 | 0.824 |
| Q125L | A9160T | 358 | 0.510 |
| A84T | G9036A | 645 | 0.593 |
| E93D | A9065T | 189 | 0.387 |
| S8N | G8809A | 349 | 0.738 |
| T128K | C9169A | 97 | 0.278 |
| P200T | C9384A | 192 | 0.589 |
| N51K | C8939G | 57 | 0.421 |
| A49T | G8931A | 357 | 0.960 |
| H166Q | C9284A | 74 | 0.916 |
| K144N | G9218T | 170 | 0.767 |
| M173I | G9305T | 316 | 0.718 |
| D174V | A9307T | 241 | 0.633 |
| R134G | A9186G | 575 | 0.963 |
| V194A | T9367C | 382 | 0.805 |
| H171L | A9298T | 434 | 0.553 |
| T80P | A9024C | 36 | 0.509 |
| W113L | G9124T | 274 | 0.835 |
| S45R | T8921A | 187 | 0.581 |
| V146I | G9222A | 677 | 0.897 |
| P131S | C9177T | 414 | 0.711 |
| G119S | G9141A | 226 | 0.596 |
| K7R | A8806G | 348 | 0.0915 |
| V153E | T9244A | 285 | 1.46 |
| R106G | A9102G | 562 | 0.493 |
| A156T | G9252A | 425 | 1.11 |
| L112Q | T9121A | 395 | 0.258 |
| T117S | A9135T | 440 | 0.935 |
| F191S | T9358C | 396 | 0.776 |
| V153I | G9243A | 388 | 1.18 |
| R17S | G8837T | 179 | 1.20 |
| M79K | T9022A | 231 | 0.556 |
| R184W | A9336T | 308 | 0.598 |
| H192Q | T9362G | 31 | 1.31 |
| L112P | T9121C | 330 | 0.577 |
| D186Y | G9342T | 159 | 0.414 |
| E93A | A9064C | 30 | 0.577 |
| P122L | C9151T | 146 | 0.619 |
| P131L | C9178T | 173 | 0.761 |
| R178I | G9319T | 260 | 0.717 |
| S8T | G8809C | 42 | 0.198 |
| D175E | C9311G | 110 | 0.972 |
| E59V | A8962T | 222 | 0.807 |
| A27T | G8865A | 137 | 0.571 |
| L170P | T9295C | 343 | 0.768 |
| E98D | A9080T | 341 | 0.519 |
| T80I | C9025T | 255 | 0.858 |
| W124S | G9157C | 71 | 0.488 |
| M1T | T8788C | 220 | 0.227 |
| H193Q | C9365G | 127 | 0.505 |
| F185S | T9340C | 537 | 0.544 |
| L181I | T9327A | 318 | 0.492 |
| H102R | A9091G | 355 | 0.775 |
| E24D | G8858T | 61 | 0.0513 |
| H102Q | C9092G | 93 | 0.352 |

Extract of 3 entries:

H192Q (base T9362G, input reads 31) gave 1.31.
R17S (base G8837T, input reads 179) gave 1.20.
E93A (base A9064C, input reads 30) gave 0.577.

Since each clone held several changes (about five per kb), neutral changes can read low.
Base changes are numbered along pNL4-3.
The authors read an index above 1 as above wild type (1.9% of all changes in the genome).